Measured values published in PMC7954794, “Protein context shapes the specificity of SH3 domain-mediated interactions in vivo” (Nature Communications, 2021).
The amount applied is not stated for every result.

What was measured:
Type in all cases: cell-based, Saccharomyces cerevisiae
Design in all cases: key: 0: SH3-independent; 1: SH3-dependent PPIs; 2: SH3-inhibited PPIs
ABP1 = assay: DHFR-PCA on solid medium, bait ABP1 (Fig. 1B); conditions: bait ABP1, label = prey
From the text: (§1) Supplement 41467_2021_21873_MOESM8_ESM.xlsx, sheet "Fig1B" | column: medsize; medrep; Ratio; Score

BEM1-1 = assay: DHFR-PCA on solid medium, bait BEM1-1 (Fig. 1B); conditions: bait BEM1-1, label = prey
From the text: as §1

BEM1-2 = assay: DHFR-PCA on solid medium, bait BEM1-2 (Fig. 1B); conditions: bait BEM1-2, label = prey
From the text: as §1

YAL005C
Score (ABP1): 0 | Score (BEM1-1): 0 | Score (BEM1-2): 0

YBL017C
Score (ABP1): 2

YBR234C
Score (ABP1): 0 | Score (BEM1-1): 0 | Score (BEM1-2): 0

YCR088W (PWATAEYDYDAAEDNELTFVENDKIINIEFVDDDWWLGELEKDGSKGLFPSNYVSLGN)
Score (ABP1): 0 | Score (BEM1-1): 1 | Score (BEM1-2): 0

YDL229W
Score (ABP1): 0 | Score (BEM1-1): 0 | Score (BEM1-2): 0

YDR170C
Score (ABP1): 2

YDR265W
Score (BEM1-1): 2

YDR388W (ETVTALYDYQAQAAGDLSFPAGAVIEIVQRTPDVNEWWTGRYNGQQGVFPGNYVQLNK)
Score (ABP1): 0

YER166W
Score (ABP1): 0

YFR004W
Score (ABP1): 2

YFR024C-A (PKAVALYSFAGEESGDLPFRKGDVITILKKSDSQNDWWTGRVNGREGIFPANYVELV)
Score (ABP1): 0

YGL206C
Score (ABP1): 0 | Score (BEM1-2): 2

YHR016C (SATPTAVALYNFAGEQPGDLAFKKGDVITILKKSDSQNDWWTGRTNGKEGIFPANYVRVS)
Score (ABP1): 0

YIL062C
Score (ABP1): 0

YJL210W
Score (BEM1-1): 2

YLR370C
Score (ABP1): 0

YMR026C
Score (BEM1-1): 2

YMR109W (PMFEAAYDFPGSGSPSELPLKKGDVIYITREEPSGWSLGKLLDGSKEGWVPTAYMKPHS)
Score (ABP1): 0 | Score (BEM1-1): 1 | Score (BEM1-2): 1

YNL138W
Score (ABP1): 0

YOR181W
Score (ABP1): 0

YPR154W (EYVEALYQFDPQQDGDLGLKPGDKVQLLEKLSPEWYKGSCNGRTGIFPANYVKPAF)
Score (ABP1): 0

YPR184W
Score (ABP1): 0
